Measured values from several laboratories, pooled; numbers as filed in NIAID ChemDB.

Common to all: whole-cell or culture tests; species: HIV-2; read by: cytopathic effect / MTT; read-out: EC50

An empty or dashed field is not shown. Lines come from different laboratories, so protocols vary. ECn is the concentration giving n% inhibition of infection, replication or growth.

SMILES	cells	changes	strain	value
COc1ccc2nc3n(c2c1)C(c1c(Cl)cccc1Cl)SC3	MT-4		ROD	>292 µM
CCCCNc1nc(N)nc2c1[nH]c[n+]2C[C@@H](C)OCP(=O)(O)O	MT-4		ROD	9.8 ± 4.9 µg/mL
Fc1cc2nc3n(c2cc1F)C(c1c(F)cccc1F)SC3	MT-4		ROD	>37.3 µM
CN(C)c1ncnc2c1ncn2CCOCP(=O)(O)O	CEM		ROD	85 µg/mL
Cc1cn([C@@H]2C=C[C@H](COC(=O)NCCCCNC(=O)OC[C@H]3O[C@@H](n4cc(C)c(=O)[nH]c4=O)C[C@@H]3N=[N+]=[N-])O2)c(=O)[nH]c1=O	MT-4		ROD	19 µM
COc1ccc2nc3n(c2c1)C(c1c(F)cccc1Cl)SC3	MT-4		ROD	>373 µM
C=CCNc1ncnc2c1ncn2C[C@@H](C)OCP(=O)(O)O	CEM		ROD	12 µg/mL
Cc1cn([C@H]2C[C@H](N=[N+]=[N-])[C@@H](COC(=O)CCC(=O)OC[C@H]3O[C@@H]4O[C@H]5[C@H](O)[C@@H](O)[C@@H](O[C@H]6[C@H](O)[C@@H](O)[C@@H](O[C@H]7[C@H](O)[C@@H](O)[C@@H](O[C@H]8[C@H](O)[C@@H](O)[C@@H](O[C@H]9[C@H](O)[C@@H](O)[C@@H](O[C@H]3[C@H](O)[C@H]4O)O[C@@H]9CO)O[C@@H]8CO)O[C@@H]7CO)O[C@@H]6CO)O[C@@H]5CO)O2)c(=O)[nH]c1=O	MT-4		ROD	0.034 µg/mL
CCN(C)c1nc(N)nc2c1ncn2CCOCP(=O)(O)O	MT-4		ROD	0.11 µg/mL
Cc1cn([C@H]2C[C@H](N=[N+]=[N-])[C@@H](COC(=O)CCC(=O)OC[C@H]3O[C@@H]4O[C@H]5[C@H](O)[C@@H](O)[C@@H](O[C@H]6[C@H](O)[C@@H](O)[C@@H](O[C@H]7[C@H](O)[C@@H](O)[C@@H](O[C@H]8[C@H](O)[C@@H](O)[C@@H](O[C@H]9[C@H](O)[C@@H](O)[C@@H](O[C@H]%10[C@H](O)[C@@H](O)[C@@H](O[C@H]3[C@H](O)[C@H]4O)O[C@@H]%10CO)O[C@@H]9CO)O[C@@H]8CO)O[C@@H]7CO)O[C@@H]6CO)O[C@@H]5CO)O2)c(=O)[nH]c1=O	MT-4		ROD	0.102 µg/mL
Nc1nc(Nc2cccc3ccccc23)c2ncn(CCOCP(=O)(O)O)c2n1	MT-4		ROD	68.5 µg/mL
O=C(c1ccccc1)c1ccc2nc3n(c2c1)C(c1c(F)cccc1F)SC3	MT-4		ROD	>1.3 µM
CC(C)=NOC(=O)OC[C@H]1O[C@@H](n2cc(C)c(=O)[nH]c2=O)C[C@@H]1N=[N+]=[N-]	MT-4		ROD	0.073 µM
Fc1ccc2c(c1)nc1n2C(c2c(F)cccc2F)SC1	MT-4		ROD	>35.9 µM
COC(=O)C(Cc1ccccc1)NC(=O)[C@@H](NC(=O)[C@@H](C[C@H](O)[C@H](CC1CCCCC1)NC(=O)[C@@H](NC(=O)[C@H](Cc1ccccc1)CS(=O)(=O)C(C)(C)C)C(C)C)C(C)C)C(C)C	MT-4	RT-E219D	EHO	5 µM
Fc1cccc(F)c1C1SCc2nc3cc(C(F)(F)F)ccc3n21	MT-4		ROD	>351 µM
C1CNCCNCCCN[C@H]([C@@H]2CNCCCNCCNCCCN2)CNC1	MT-4		ROD	1.01 µM
Fc1ccc2nc3n(c2c1)C(c1c(Cl)cccc1Cl)SC3	MT-4		ROD	>368 µM
CC(=O)c1ccc(C)cc1NC(C(N)=O)c1c(Cl)cccc1Cl	MT-4		EHO	7.4 µM
CCCCNc1nc(N)nc2c1ncn2CCOCP(=O)(O)O	CEM		ROD	1.4 µg/mL
C1CNCCNCCCN(CCCN2CCCNCCNCCCNCC2)CCNC1	MT-4		ROD	0.75 µM
C[C@H](CC1CNC2C(N)=NC(N)NC12)OCP(=O)(O)O	CEM		ROD	50 µg/mL
CCOCn1c(Cc2ccccc2)c(C(C)C)c(=O)[nH]c1=O	MT-4		ROD	9.3 µM
Cc1cn([C@H]2C=C[C@@H](CO)O2)c(=O)[nH]c1=O	MT-4		ROD	0.08 µM
CN(C)CCNc1nc(N)nc2c1ncn2CCOCP(=O)(O)O	MT-4		ROD	2.39 µg/mL
Cc1cn([C@@H]2C=C[C@H](COC(=O)OC[C@@H]3C=C[C@H](n4cc(C)c(=O)[nH]c4=O)O3)O2)c(=O)[nH]c1=O	MT-4		ROD	0.33 µM
Cc1cn([C@H]2C[C@H](N=[N+]=[N-])[C@@H](COC(=O)CCC(=O)OCC3OC4OC5C(COS(=O)(=O)O)OC(OC6C(COS(=O)(=O)O)OC(OC7C(COS(=O)(=O)O)OC(OC8C(COS(=O)(=O)O)OC(OC9C(COS(=O)(=O)O)OC(OC3C(OS(=O)(=O)O)C4OS(=O)(=O)O)C(OS(=O)(=O)O)C9OS(=O)(=O)O)C(OS(=O)(=O)O)C8OS(=O)(=O)O)C(OS(=O)(=O)O)C7OS(=O)(=O)O)C(OS(=O)(=O)O)C6OS(=O)(=O)O)C(OS(=O)(=O)O)C5OS(=O)(=O)O)O2)c(=O)[nH]c1=O	MT-4		ROD	3.71 µg/mL
C[C@H](C[n+]1c[nH]c2c(NCCCC3CCCCC3)nc(N)nc21)OCP(=O)(O)O	MT-4		ROD	3.2 ± 1.6 µg/mL

Repeating the first 4 entries:

SMILES	cells	changes	strain	value
COc1ccc2nc3n(c2c1)C(c1c(Cl)cccc1Cl)SC3	MT-4		ROD	>292 µM
CCCCNc1nc(N)nc2c1[nH]c[n+]2C[C@@H](C)OCP(=O)(O)O	MT-4		ROD	9.8 ± 4.9 µg/mL
Fc1cc2nc3n(c2cc1F)C(c1c(F)cccc1F)SC3	MT-4		ROD	>37.3 µM
CN(C)c1ncnc2c1ncn2CCOCP(=O)(O)O	CEM		ROD	85 µg/mL